Pooled drug test results. Numbers come from NIAID ChemDB, via PubChem.

Common to all: growth or infection tests; species: Poliovirus; measure: EC50

Blank or dashed fields: not listed here. Neighbouring rows are from separate reports. ECn is the concentration giving n% inhibition of infection, replication or growth.

| compound | strain | cells | value |
|---|---|---|---|
| Nc1ncnc2c1ncn2C[C@H](O)CO | TYPE 1 | HeLa | >400 µg/mL |
| O=c1[nH]cnc2c1ncn2[C@@H]1C=C(CO)[C@@H](O)[C@H]1O | TYPE 1 | HeLa | >400 µg/mL |
| CC(C)S(=O)(=O)n1c(N)nc2ccc(/C(=N/O)c3ccccc3)cc21 | Brunhilde (type 20) | BSC-1 | 0.02 µg/mL |
| Cc1cn([C@@H]2C[C@H](CO)[C@@H](O)C2)c(=O)[nH]c1=O | TYPE 1 | HeLa | 100 µg/mL |
| OC[C@H]1O[C@@H](n2cnc3cc(Cl)c(Cl)cc32)[C@H](O)[C@H]1O | TYPE 1 | HeLa | >10 µg/mL |
| CCCSc1nsc(-c2ccccc2)c1C(N)=O | Brunhilde (type 1) | HEP-2 | >300 µg/mL |
| Cc1cn([C@H]2C[C@@H](CO)[C@H](O)C2)c(=O)[nH]c1=O | TYPE 1 | HeLa | 100 µg/mL |
| Nc1nccc2c1ncn2[C@@H]1C[C@H](CO)[C@@H](O)[C@H]1O | TYPE 1 | HeLa | >400 µg/mL |
| Nc1nc(Cl)c2nnn(C[C@H]3CC[C@@H](CO)C3)c2n1 | TYPE 1 | HeLa | >200 µg/mL |
| CC(=O)N[C@H]1[C@@H](O[C@@H]2O[C@H](C[C@@H](O)[C@H]3O[C@@H](n4ccc(=O)[nH]c4=O)[C@H](O)[C@@H]3O)[C@H](O)[C@H](O)[C@H]2NC(=O)/C=C/CC(C)C)O[C@H](CO)[C@@H](O)[C@@H]1O | TYPE 1 | BSC-1 | >0.5 µg/mL |
| Nc1ncnc2c1ncn2[C@H]1[C@H](O)[C@H](O)[C@]2(CO)O[C@H]12 | TYPE 1 | HeLa | >10 µg/mL |
| Nc1ncnc2c1ccn2[C@@H]1O[C@H](CO)[C@H](O)[C@H]1O | TYPE 1 | VERO | ≥40 µg/mL |
| Nc1ncnc2c1ncn2C1CC(CO)[C@@H](O)[C@H]1O | TYPE 1 | HeLa | ≥10 µg/mL |
| NC(=O)c1ncn([C@@H]2O[C@H](CO)[C@@H](O)[C@H]2O)c1C#CCCO | TYPE 1 | HeLa | >200 µg/mL |
| N#Cc1c(N2CCOCC2)nsc1-c1ccccc1 | Brunhilde (type 1) | HEP-2 | >1 µg/mL |
| Cc1cn([C@@H]2CC[C@H](CO)C2)c(=O)[nH]c1=O | TYPE 1 | HeLa | 400 µg/mL |
| CCOC(=O)CSc1nsc(-c2ccccc2)c1C#N | Brunhilde (type 1) | HEP-2 | >200 µg/mL |
| Nc1nccc2c1ncn2[C@@H]1C[C@H](CO)[C@@H](O)[C@H]1O | TYPE 1 | HeLa | >400 µg/mL |
| NC(=O)c1ncn([C@@H]2O[C@H](CO)[C@@H](O)[C@H]2O)n1 | TYPE 1 | HeLa | 20 µg/mL |
| N#Cc1c(SCCCCBr)nsc1-c1ccccc1 | Brunhilde (type 1) | HEP-2 | >25 µg/mL |
| COc1c(-c2ccc(O)c(O)c2)oc2cc(O)cc(O)c2c1=O | - | VERO | 5 µg/mL |
| NC(=O)c1ccnc([C@@H]2O[C@H](CO)[C@@H](O)[C@H]2O)c1 | TYPE 1 | HeLa | >400 µg/mL |
| NC(=O)c1nc(F)c[nH]c1=O | - | VERO | 4.8 µg/mL |
| Nc1nc(N)c2ncn(C[C@H]3CC[C@@H](CO)C3)c2n1 | TYPE 1 | HeLa | >200 µg/mL |
| Nc1ncnc2c1ncn2[C@@H]1C=C(CO)[C@@H](O)[C@H]1O | TYPE 1 | HeLa | >10 µg/mL |
| Nc1ncnc2c1c(Br)cn2[C@@H]1O[C@H](CO)[C@@H](O)[C@H]1O | TYPE 1 | HeLa | 0.2 µg/mL |
| O[C@H]1[C@@H](O)COC(n2cnc3cc(Cl)c(Cl)cc32)[C@@H]1O | TYPE 1 | HeLa | >200 µg/mL |
| Nc1nccc2c1ncn2[C@@H]1C[C@H](CO)[C@@H](O)[C@H]1O | TYPE 1 | HeLa | >400 µg/mL |
| O=[N+]([O-])c1cc(Cl)c(Cl)cc1[N+](=O)[O-] | TYPE 1 | HeLa | >4 µg/mL |
| CCCSc1nsc(-c2ccccc2)c1C(=O)OC | Brunhilde (type 1) | HEP-2 | 0.2 µg/mL |
| C[C@H]1C[C@@H](n2cnc3c(N)ncnc32)[C@H](O)[C@@H]1O | TYPE 1 | HeLa | >200 µg/mL |
| Nc1nc(Cl)c2ncn(C[C@H]3CC[C@@H](CO)C3)c2n1 | TYPE 1 | HeLa | >10 µg/mL |
| C#Cc1c(C(N)=O)ncn1[C@@H]1O[C@H](CO)[C@@H](O)[C@H]1O | TYPE 1 | HeLa | >400 µg/mL |
| Clc1cc2nc[nH]c2cc1Cl | TYPE 1 | HeLa | >10 µg/mL |
| Nc1ncnc2c1ccn2[C@@H]1C[C@H](CO)[C@@H](O)[C@H]1O | TYPE 1 | HeLa | ≥10 µg/mL |
| Nc1nccc2c1ncn2[C@@H]1O[C@H](CO)[C@@H](O)[C@H]1O | TYPE 1 | HeLa | ≥40 µg/mL |
| Cc1c(C(N)=O)ncn1C1OC(CO)C(O)C1O | TYPE 1 | - | >200 µg/mL |
| Nc1nc(N)c2nnn(C[C@H]3CC[C@@H](CO)C3)c2n1 | TYPE 1 | HeLa | >200 µg/mL |
| Nc1ncnc2c1ncn2[C@@H]1C=C(CO)[C@@H](O)[C@H]1O | TYPE 1 | HeLa | >10 µg/mL |
| CCCSc1nsc(-c2ccccc2)c1C(=O)O | Brunhilde (type 1) | HEP-2 | >500 µg/mL |
| OC[C@H]1O[C@@H](n2cnc3cc(Cl)c(Cl)cc32)[C@H](O)[C@@H]1O | TYPE 1 | HeLa | >10 µg/mL |

Repeating the first 6 entries:

compound,strain,cells,value
Nc1ncnc2c1ncn2C[C@H](O)CO,TYPE 1,HeLa,>400 µg/mL
O=c1[nH]cnc2c1ncn2[C@@H]1C=C(CO)[C@@H](O)[C@H]1O,TYPE 1,HeLa,>400 µg/mL
CC(C)S(=O)(=O)n1c(N)nc2ccc(/C(=N/O)c3ccccc3)cc21,Brunhilde (type 20),BSC-1,0.02 µg/mL
Cc1cn([C@@H]2C[C@H](CO)[C@@H](O)C2)c(=O)[nH]c1=O,TYPE 1,HeLa,100 µg/mL
OC[C@H]1O[C@@H](n2cnc3cc(Cl)c(Cl)cc32)[C@H](O)[C@H]1O,TYPE 1,HeLa,>10 µg/mL
CCCSc1nsc(-c2ccccc2)c1C(N)=O,Brunhilde (type 1),HEP-2,>300 µg/mL